Data on 1 substance can be found in article PMC10079225, “Discovery of Hippo signaling as a regulator of CSPG4 expression and as a therapeutic target for Clostridioides difficile disease” (2023).

Broadly, the pKd is −log10 of the Kd, conventionally taken in molar units. Low values mean a large Kd, high ones a small Kd.

pKd: −log10 of the molar value.

For the assay, the target named is Clostridioides difficile TcdB1 (Clostridioides difficile) (UniProt P18177).

“FZD 7 (Frizzled 7) (from UniProt O75084 33-574)”: the pKd is 8.11.
